Compound potency records, mixed from different reports. Data source: NIAID ChemDB in PubChem.

ICn is the concentration giving n% inhibition. Conditions beyond the fields shown may differ between rows. Inhibition is in % at the dose shown (toxicity tests: loss of growth or viability). ECn: concentration that inhibits the pathogen or its effect by n%. MIC50, MIC90 and the like: level of inhibition, or share of isolates inhibited. An empty or dashed field is not shown.

compound	measure	test	organism	read by	dose	strain or isolate	cells	target	value
O=C(Nc1ccc(S(=O)(=O)[O-])c2cccc(S(=O)(=O)[O-])c12)c1ccccc1	inhibition	culture	Adenovirus	cytopathic effect	5 µg/mL	TYPE 3	Human amnion AV3 cells		0%
Fc1ccccc1N1CCN(c2cncc(-c3cc(C(F)(F)F)cc(C(F)(F)F)c3)n2)CC1	IC50	target	Cytomegalovirus					UL97 kinase	<100 µM
CCOC(=O)c1ccc(OCCC2CCN(c3ccc(C)nn3)CC2)cc1	EC50	culture	Rhinovirus	neutral red		5426-CV26 (ICAM-1 receptor group 25)	KB		0.108 µM
Fc1ccc(N2CCCCC2)c(NC(=S)c2ccncc2)c1	inhibition	host protein		kinase activity	10 µM			DLK	-1.4%
Cc1ccc(C(=O)Nc2ccc(S(=O)(=O)O)c3cc(S(=O)(=O)O)cc(S(=O)(=O)O)c23)cc1NC(=O)c1cccc(NC(=O)Nc2cccc(C(=O)Nc3cc(C(=O)Nc4ccc(S(=O)(=O)O)c5cc(S(=O)(=O)O)cc(S(=O)(=O)O)c45)ccc3C)c2)c1	inhibition	culture	Adenovirus	cytopathic effect	50 µg/mL	TYPE 3	Human amnion AV3 cells		10%
COc1ccc(-c2cncc(N3CCN(c4ccc(C(F)(F)F)cc4)CC3)n2)cc1OC	IC50	target	Cytomegalovirus					UL97 kinase	<100 µM
C=CCc1ccc(O)c(OC)c1	MIC90	culture	Candida albicans	turbidity		2920			500 µg/mL
CCC(CC)O[C@@H]1C=C(C(=O)O)C[C@H](N)[C@H]1NC(C)=O	EC50	culture	Influenza A virus			Influenza A/Johannesburg/33/94 (H3N2)	MDCK		0.5 µM
COc1ccc(-c2cncc(N3CCN(c4cccc(C(F)(F)F)c4)CC3)n2)cc1OC	IC50	target	Cytomegalovirus					UL97 kinase	<100 µM
CCOC(=O)c1cnc(NCCCCNc2ccnc3cc(Cl)ccc23)nc1C	MIC99	culture	Cryptococcus gattii			1913 ER			8 µg/mL
O=S(=O)([O-])c1cc(NS(=O)(=O)c2ccccc2)c2c(S(=O)(=O)[O-])cc(S(=O)(=O)[O-])cc2c1	inhibition	culture	Herpes simplex virus	cytopathic effect	10 µg/mL		Human conjunctiva cells		50%
O=[N+]([O-])c1ccc(C=Nc2ccccc2O)cc1	MIC99	culture	Cryptococcus gattii			196L/03			16 µg/mL
O=S(=O)([O-])c1cc(S(=O)(=O)[O-])c2cc(NS(=O)(=O)c3ccccc3)ccc2c1	inhibition	culture	Herpes simplex virus	cytopathic effect	10 µg/mL		Human conjunctiva cells		0%
Oc1ccc(O)c(C=Nc2ccccc2O)c1	MIC99	culture	Cryptococcus gattii			L-28/02			8 µg/mL
Nc1c(S(=O)(=O)[O-])cc2cc(S(=O)(=O)[O-])ccc2c1O	inhibition	culture	Adenovirus	cytopathic effect	10 µg/mL	TYPE 3	Human embryonic lung cells		90%
Cc1cc(C)cc(-c2cncc(N3CCN(c4cccc(C)c4C)CC3)n2)c1	inhibition	target	Cytomegalovirus		10 µM			UL97 kinase	>15%
CCOC(=O)c1c(C)nc(NCCCCNc2ccnc3cc(Cl)ccc23)nc1-c1ccccc1[N+](=O)[O-]	MIC99	culture	Cryptococcus gattii			ATCC 24065			8 µg/mL
O=C(Nc1ccc2c(O)c(N=Nc3ccc(N=Nc4ccc(S(=O)(=O)O)cc4)cc3)c(S(=O)(=O)O)cc2c1)c1ccccc1	inhibition	culture	Herpes simplex virus	cytopathic effect	5 µg/mL		Human amnion AV3 cells		0%
Oc1ccccc1C=Nc1ccccc1O	MIC99	culture	Cryptococcus neoformans			28JF			11.3 µg/mL
O=S(=O)(O)c1ccc2cc(O)c(S(=O)(=O)O)cc2c1	inhibition	culture	Herpes simplex virus	cytopathic effect	10 µg/mL		Human amnion AV3 cells		0%
Oc1ccccc1N=Cc1ccccc1	MIC99	culture	Cryptococcus neoformans			LMM 820			5.7 µg/mL
O=S(=O)(O)c1cc(O)c2c(O)c(N=Nc3ccccc3)c(S(=O)(=O)O)cc2c1	inhibition	culture	Herpes simplex virus	cytopathic effect	10 µg/mL		Human amnion AV3 cells		10%
CCOC(=O)c1c(C)nc(NCCCCNc2ccnc3cc(Cl)ccc23)nc1-c1ccc(F)cc1	MIC99	culture	Cryptococcus neoformans			WP			5.7 µg/mL
NC(=O)c1ccc(-c2cncc(N3CCN(C(=O)c4ccco4)CC3)n2)cc1	IC50	target	Cytomegalovirus					UL97 kinase	<1 µM

Repeating the first 3 entries:

compound | measure | test | organism | read by | dose | strain or isolate | cells | target | value
O=C(Nc1ccc(S(=O)(=O)[O-])c2cccc(S(=O)(=O)[O-])c12)c1ccccc1 | inhibition | culture | Adenovirus | cytopathic effect | 5 µg/mL | TYPE 3 | Human amnion AV3 cells |  | 0%
Fc1ccccc1N1CCN(c2cncc(-c3cc(C(F)(F)F)cc(C(F)(F)F)c3)n2)CC1 | IC50 | target | Cytomegalovirus |  |  |  |  | UL97 kinase | <100 µM
CCOC(=O)c1ccc(OCCC2CCN(c3ccc(C)nn3)CC2)cc1 | EC50 | culture | Rhinovirus | neutral red |  | 5426-CV26 (ICAM-1 receptor group 25) | KB |  | 0.108 µM